{"source": "patent US11666559B2", "about": "“Spiro-lactam compounds, process and uses thereof” (UNIVERSIDADE DE COIMBRA, priority 2017, dated 2023)", "system": "HIV-2", "method": "In an embodiment, TZM-bl cells (AIDS Research and Reference Reagent Program, National Institutes of Health, USA) were cultured in complete growth medium that consists of Dulbecco's minimal essential medium (DMEM) supplemented with 10% fetal bovine serum (FBS), 100 U/ml of penicillin-streptomycin (Gibco/Invitrogen, USA), 1 mM of sodium pyruvate (Gibco/Invitrogen, USA), 2 mM of L-glutamine (Gibco/Invitrogen, USA) and 1 mM of non-essential amino acids (Gibco/Invitrogen, USA).\nIn an embodiment, the primary isolates 93AOHDC249, 93AOHDC250, 01PTHDECJN and 03PTHCC9, used in this study were previously isolated, titrated and characterized for co-receptor usage. HIV reference strain SG3.1 was obtained by transfection of HEK293T cells with pSG3.1 (HIV-1) plasmid using Fugene 6 reagent (Roche, Switzerland) according to manufacturer's instructions.\nIn an embodiment, the 50% tissue culture infectious dose (TCID50) of the virus was determined in a single-round viral infectivity assay using a luciferase reporter gene assay in TZM-bl cells and calculated using the statistical method of Reed and Muench^27.\nIn an embodiment, the antiviral activity of the compounds was determined in a single-round assay with TZM-bl cells as previously described ^26. Cells were infected with 200 TCID50 of virus in the presence of serial fold dilutions of the BSS compounds in GM, supplemented with DEAE-dextran (19.7 μg/ml). After 48 h of infection, luciferase expression was quantified with the One-Glow luciferase assay substrate reagent (Promega, USA) according to manufacturer's instructions. Briefly, a volume of reagent equal to that of the culture medium in each well was added. For 96-well plates, typically 100 μl of reagent is added to the cells grown in 100 μl of medium. After an incubation of 3 minutes at room temperature to allow complete cell lysis luminescence was measured in Tecan Infinite M200. Background luminescence was measured by using control wells that contained only target cells and GM. Maraviroc (CCR5 antagonist), T1249 (fusion inhibitor) and AMD3100 (CXCR4 antagonist) were used as positive controls of the antiviral activity. At least two independent experiments were performed for each analysis and each assay was set up in triplicate wells.\nIn an embodiment, dose-response curves were estimated from the percentage of inhibition of infection (y-axis) against logo of concentration of each compound (x-axis) using the sigmoidal dose-response equation (variable slope) in GraphPad Prism version 5.00 for Windows (GraphPad Software, San Diego Calif. USA, www.graphpad.com). IC50 and IC90 values were determined from this curve. IC50 and IC90 values correspond to the concentration of compound that inhibits viral replication in 50% and 90%, respectively.", "key": {"[1]": {"conditions": "drug resistant HIV-2 primary isolates relative to the control isolate 03PTHCC19"}}, "note": "Like-named read-outs stand apart in the source and are kept apart here."}
{"smiles": "CC1(C)S[C@H]2N(C(=O)[C@]23CC=C(C(=O)OCc2ccccc2)[C@@H]3C(=O)c2ccccc2)[C@H]1C(=O)OC(c1ccccc1)c1ccccc1", "note": "[BSS-730A]", "values": [{"measurement": "IC50 Fold change", "setting": "00PTHCC20 relative to IC50 of wild type isolate 03PTHCC19", "result": 2.25}, {"measurement": "IC90 Fold change", "setting": "00PTHCC20 relative to IC90 of wild type isolate 03PTHCC19", "result": 1.14}, {"measurement": "IC50 Fold change", "setting": "00PTHDECT relative to IC50 of wild type isolate 03PTHCC19", "result": 2.88}, {"measurement": "IC90 Fold change", "setting": "00PTHDECT relative to IC90 of wild type isolate 03PTHCC19", "result": 0.89}, {"measurement": "IC50 Fold change", "setting": "03PTHCC20 relative to IC50 of wild type isolate 03PTHCC19", "result": 2.38}, {"measurement": "IC90 Fold change", "setting": "03PTHCC20 relative to IC90 of wild type isolate 03PTHCC19", "result": 1.48}, {"measurement": "IC50 Fold change", "setting": "03PTHSM9 relative to IC50 of wild type isolate 03PTHCC19", "result": 2.00}, {"measurement": "IC90 Fold change", "setting": "03PTHSM9 relative to IC90 of wild type isolate 03PTHCC19", "result": 1.81}, {"measurement": "IC50 Fold change", "setting": "10PTHSJIG relative to IC50 of wild type isolate 03PTHCC19", "result": 1.50}, {"measurement": "IC90 Fold change", "setting": "10PTHSJIG relative to IC90 of wild type isolate 03PTHCC19", "result": 0.50}, {"measurement": "IC50 Fold change", "setting": "15PTHCEC relative to IC50 of wild type isolate 03PTHCC19", "result": 2.13}, {"measurement": "IC90 Fold change", "setting": "15PTHCEC relative to IC90 of wild type isolate 03PTHCC19", "result": 0.79}, {"measurement": "IC50 Fold change", "setting": "15PTHSJIG relative to IC50 of wild type isolate 03PTHCC19", "result": 2.25}, {"measurement": "IC90 Fold change", "setting": "15PTHSJIG relative to IC90 of wild type isolate 03PTHCC19", "result": 0.88}, {"measurement": "median IC50 fold-change", "setting": "[1]", "result": 2.39}, {"measurement": "median IC90 fold-change", "setting": "[1]", "result": 1.09}]}
